# PubChem BioAssay AID624099, ICCB-Longwood, 2012
# Test: 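Host factors E2 relies on to silence an HPV18 LCR reporter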 (primary screen)
# Cell system: human C33A cervical carcinoma cells (HPV-negative) stably expressing BPV1 E2 and an HPV18 LCR luciferase reporter
# Knock-down reagent: siRNA pool against human genes, 40 nM
# Duration: 72 h
# Detection: 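Per-well luciferase luminescence, z-scored on each plate against the plate mean and SD with control wells left out, then averaged across three replicate plates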
# Direction: mean z-score and z-score: higher = stronger reporter signal, weaker E2 silencing
# Call rule: 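Hit if mean z-score reaches 2 and two or more of three replicate z-scores also reach 2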
# The deposit covers about 21,000 reagents; shown is a part drawn at random. 497 of them (2.4%) were called active. 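Higher z means weaker E2 silencing; only reporter increases were scored, and knock-downs that hurt cell survival may mask genuine repressor factors.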 Reagents against one gene are numbered here.
Gene,reagent,mean z-score,"z-score, replicate A","z-score, replicate B","z-score, replicate C",outcome
NAA20 (GeneID 51126),1,0.24,-0.01,0.18,0.56,inactive
SMYD2 (GeneID 56950),1,0.42,0.1,0.51,0.65,inactive
TAAR9 (GeneID 134860),1,2.29,1.86,2.22,2.8,active
EFNB2 (GeneID 1948),1,-0.04,-0.29,0.07,0.1,inactive
SRCAP (GeneID 10847),1,-0.61,-0.41,-0.72,-0.71,inactive
NIPAL3 (GeneID 57185),1,1.05,0.68,0.93,1.56,inactive
NMD3 (GeneID 51068),1,1.42,1.68,1.3,1.28,inactive
CIMIP1 (GeneID 128602),1,-1.28,-1.32,-1.24,-1.28,inactive
GET1 (GeneID 7485),1,-1.15,-0.97,-1.21,-1.26,inactive
POU4F2 (GeneID 5458),1,-0.13,-0.16,-0.1,-0.14,inactive
PSMB2 (GeneID 5690),1,0.19,0.1,0.08,0.38,inactive
CNTROB (GeneID 116840),1,3.75,3.32,4.03,3.9,active
GNAZ (GeneID 2781),1,-0.84,-1.12,-0.51,-0.87,inactive
ACTR1A (GeneID 10121),1,1.43,1.03,1.39,1.86,inactive
GPR85 (GeneID 54329),1,0.51,0.76,0.52,0.23,inactive
SSBP4 (GeneID 170463),1,-2.18,-2.52,-1.94,-2.07,inactive
TGM6 (GeneID 343641),1,-2.04,-2.13,-2.11,-1.86,inactive
ITGAX (GeneID 3687),1,-0.07,-0.05,-0.01,-0.14,inactive
LOC401410 (retired record) (GeneID 401410),1,0.65,0.67,0.75,0.54,inactive
LOC401410 (retired record) (GeneID 401410),2,-0.01,0.18,0.05,-0.25,inactive
TBC1D27P (GeneID 96597),1,-2.21,-2.23,-2.33,-2.07,inactive
MYL11 (GeneID 29895),1,-0.14,0.01,-0.09,-0.35,inactive
CMTM1 (GeneID 113540),1,-0.55,-0.59,-0.8,-0.28,inactive

Reagents listed above with an active call, once more:
Gene,reagent,mean z-score,"z-score, replicate A","z-score, replicate B","z-score, replicate C",outcome
TAAR9 (GeneID 134860),1,2.29,1.86,2.22,2.8,active
CNTROB (GeneID 116840),1,3.75,3.32,4.03,3.9,active
